Reference: patent publication US4607023 (dated 1986)

Test: general procedure: hybrid (solid and solution phase) peptide synthesis; Boc-amino acid on 2% crosslinked Merrifield resin; 1% crosslinked p-methyl benzhydrylamine (MBHA) resin for octapeptide; DCCI; DCCI/HOBt for repeat couplings; azide method for fragment couplings
Conditions: coupling step, acetate (HOAc) salt

Question: Which “final HPLC purity” value does the source give for “Boc-Arg-Arg-Ser-Ser-Cys-(Acm)-Phe-Gly-Gly-Arg-Ile-Asp-Arg-Ile-Gly-Ala-Gln-Ser-Gly-Leu-Gly-Cys(Acm)-Asn-Ser-Phe-Ary-Tyr-NH2.6HOAc” here?
Answer: The value was 98.3%.
